Measured values from several laboratories, pooled; numbers as filed in NIAID ChemDB.

Shared fields: growth or infection tests; organism: Mycobacterium tuberculosis

Inhibition is in % at the dose shown (toxicity tests: loss of growth or viability).

SMILES,tested at,endpoint,strain,read by,value
NC[C@H]1O[C@H](O[C@H]2[C@H](O)[C@@H](O[C@H]3O[C@H](CO)[C@@H](O)[C@H](N)[C@H]3O)[C@H](N)C[C@@H]2N)[C@H](O)[C@@H](O)[C@@H]1O,,MIC,,,6 µg/mL
O=[N+]([O-])c1ccc(S(=O)(=O)c2ccc(Cl)cc2Cl)c2ncccc12,,MIC,H37Rv,,10 µg/mL
C[C@@H]([C@H](NC(=O)[C@H](CC1CCCCC1)NC(=O)N[C@@H](Cc1c[nH]c2ccccc12)C(=O)OCc1ccccc1)C(=O)NC[C@H]1C[C@@H](O)[C@H](n2ccc(=O)[nH]c2=O)O1)N(C)C(=O)CN,,MIC99,H37Rv,resazurin / fluorescence,0.166 µM
CC1(C)C2CC3OB([C@H](Cc4ccccc4)[C@@H](Cc4ccccc4)NC(=O)[C@@H](N)CCCCN)O[C@]3(C)C1C2,,MIC,H37Rv,,≤50 µg/mL
O=C(c1ccccc1)C(Nc1nc2nc(-c3ccccc3)c(-c3ccccc3)n2[nH]1)c1ccccc1,12.5 µg/mL,inhibition,H37Rv,BACTEC,86%
COc1cc2oc(=O)cc(C[C@H](NC(=O)N[C@@H](Cc3c[nH]c4ccccc34)C(=O)OCc3ccccc3)C(=O)N[C@H](C(=O)NC[C@H]3C[C@@H](O)[C@H](n4ccc(=O)[nH]c4=O)O3)[C@H](C)N(C)C(=O)CN)c2cc1OC,,MIC99,H37Rv,resazurin / fluorescence,0.312 µM
S=c1[nH][nH]c(=S)c2c1[nH]c(=S)n2Cc1ccccc1,12.5 µg/mL,inhibition,H37Rv,BACTEC,99%
OC1(c2ccc(F)cc2)CCN(c2ccc(Nc3ncnc4ccccc34)cc2)CC1,,MIC50,H37Rv,luminescence,>50 µM
CCCCCCOc1cccc(NC(=O)OCC[NH+]2CCCC2)c1,,MIC,My 331/88,,32 µM
O=S1(=O)OCOS(=O)(=O)OCO1,12.5 µg/mL,inhibition,H37Rv,BACTEC,34%
Cc1ccc(NC(=O)c2cc(-c3ccc(-c4cccs4)s3)nc3ccc(C)cc23)cc1,,MIC,H37Rv,fluorescence,>6.25 µg/mL
C[C@@H]([C@H](NC(=O)[C@H](CC1CCCCC1)NC(=O)N[C@@H](Cc1c[nH]c2ccccc12)C(=O)NCC(C)(C)C)C(=O)NC[C@H]1C[C@@H](O)[C@H](n2ccc(=O)[nH]c2=O)O1)N(C)C(=O)CN,,MIC99,H37Rv,resazurin / fluorescence,0.333 µM
CC(C)=C1C=C2CC[C@@H]3[C@](C)(CCC[C@@]3(C)C(=O)O)[C@H]2CC1,12.5 µg/mL,inhibition,H37Rv,BACTEC,17%
Fc1ccc2c(Nc3ccc(Oc4ccc(Cl)cc4)cc3)ncnc2c1,,MIC50,H37Rv,luminescence,>50 µM
CO[C@H]1C[C@@H]2\C=C(C)/C=C/C=C\C(=O)N[C@H](c3ccccc3)C/C=C/CC[C@H](O)CC(=O)C2=C1O,,MIC,H37Rv,,3.1 µg/mL
COc1cc(/C=N/NC(=O)c2ccc(N)cc2)ccc1O,12.5 µg/mL,inhibition,H37Rv,,26%
O=C(Nc1nc(-c2cccs2)cs1)c1cc(/C=C/c2ccc(-c3ccc([N+](=O)[O-])s3)s2)nc2ccccc12,,MIC,H37Rv,fluorescence,6.25 µg/mL
Cc1ccc(CCNc2ncnc3ccccc23)cc1,,MIC50,H37Rv,luminescence,>10 µM
O=[N+]([O-])c1ccc(Sc2nc3ccccc3s2)c2ncccc12,,MIC,H37Rv,,100 µg/mL
O=C(Nc1ccccc1)c1cc(-c2cccs2)nc2ccccc12,,MIC,H37Rv,fluorescence,>6.25 µg/mL
COc1ccc2nc(C)cc(NCCc3ccc(OC(F)(F)F)cc3)c2c1,,MIC50,H37Rv,luminescence,>20 µM
O=[N+]([O-])c1ccc(S(=O)(=O)c2c(Cl)cccc2Cl)c2ncccc12,,MIC,H37Rv,,>200 µg/mL
CN(C)Nc1cc(N)c(N=Nc2ccccc2)c(=O)[nH]1,,MIC,H37Rv,BACTEC,≥12.5 µg/mL
COC(=O)[C@H](Cc1c[nH]c2ccccc12)NC(=O)N[C@@H](Cc1ccc2ccccc2c1)C(=O)N[C@H](C(=O)NC[C@H]1C[C@@H](O)[C@H](n2ccc(=O)[nH]c2=O)O1)[C@H](C)N(C)C(=O)CN,,MIC50,H37Rv,resazurin / fluorescence,0.06 µM
COc1cccc2c1C(=O)c1c(O)c3c(c(O)c1C2=O)C[C@@](O)(/C(C)=N/NC(=O)c1ccc(Cl)c(Cl)c1)C[C@H]3O[C@H]1C[C@H](N)[C@H](O)[C@H](C)O1,,MIC,TAC-R,,6.3 µg/mL
NNC(=O)c1cc(-c2ccc(-c3ccc([N+](=O)[O-])s3)s2)nc2ccccc12,,MIC,H37Rv,fluorescence,6.25 µg/mL
CC[C@@]1(O)C[C@H](O[C@H]2C[C@H](N(C)C)[C@H](O)[C@H](C)O2)c2c(cc3c(c2O)C(=O)c2c(O)cccc2C3=O)[C@H]1C(=O)OC,,MIC,H37Rv,BACTEC,12.5 µg/mL
FC(F)(F)Oc1ccc(Oc2ccc(Nc3ncnc4ccccc34)cc2)cc1,,MIC50,H37Rv,luminescence,>20 µM
CC1=NN(C(=O)c2ccc([N+](=O)[O-])cc2)C(=O)C1N=Nc1ccccc1C(=O)O,,MIC,H37Rv,BACTEC,≥12.5 µg/mL
CO[C@H]1/C=C/O[C@@]2(C)Oc3c(C)c(O)c4c(O)c(c(/C=N/N5CCN(C)CC5)c(O)c4c3C2=O)NC(=O)/C(C)=C\C=C\[C@H](C)[C@H](O)[C@@H](C)[C@@H](O)[C@@H](C)[C@H](OC(C)=O)[C@@H]1C,,MIC,H37Rv,,<2 µg/mL
O=[N+]([O-])c1ncn(S(=O)(=O)c2cccc3cccnc23)n1,,MIC bound,H37Rv,resazurin,>6.25 µg/mL
C[C@H](N)C(=O)N[C@@H](CB(O)O)Cc1ccccc1,,MIC,H37Rv,,≤500 µg/mL
NC(=O)c1ccc[n+](CC(=O)O)c1.[Br-],,MIC bound,H37Rv,BACTEC,>12.5 µg/mL
O=C(O)c1cc(-c2ccc(-c3ccc([N+](=O)[O-])s3)s2)nc2ccccc12,,MIC,H37Rv,fluorescence,6.25 µg/mL
COc1cc2c(cc1OC)C13CCN4C(=O)C(=O)C(CC41)C1C(OCC(=O)O)CC(=O)N2C13,12.5 µg/mL,inhibition,H37Rv,BACTEC,22%
FC(F)(F)c1ccccc1CCNc1ncnc2ccsc12,,MIC50,H37Rv,luminescence,>50 µM
Nc1ccc(C(=O)N/N=C/c2ccc([N+](=O)[O-])cc2)cc1,12.5 µg/mL,inhibition,H37Rv,,23%
O=C(NC(c1ccccc1)c1ccccc1)c1ccccc1,,MIC bound,H37Rv,BACTEC,>12.5 µg/mL
Nc1ccc(Sc2cc(Cl)ccc2Cl)c2ncccc12,,MIC,H37Rv,,40 µg/mL
Fc1ccc2c(Nc3ccc(NCCN4CCOCC4)cc3)ncnc2c1,,MIC50,H37Rv,luminescence,>10 µM
Cc1ccc(NC(=S)SCc2ccc3c(c2)OCO3)cc1Cl,12.5 µg/mL,inhibition,H37Rv,BACTEC,34%
CCCCCCCCOc1ccccc1NC(=O)OCC[NH+]1CCCC1,,MIC,My 331/88,,32 µM
C#CCNC1=C(C)C(=O)C2=C(C1=O)[C@@H](COC(N)=O)[C@@]1(OC)[C@H]3N[C@H]3CN21,,MIC,H37Rv,BACTEC,6.25 µg/mL
Cc1ccc(Oc2ccc(Nc3ncnc4ccccc34)cc2)cc1,,MIC50,H37Rv,luminescence,>20 µM
Nc1ccc(C(=O)N/N=C/c2ccccc2)cc1,12.5 µg/mL,inhibition,H37Rv,,16%
C[C@@H]1CN(c2c(F)c(N)c3c(=O)c(C(=O)O)cn(C4CC4)c3c2F)C[C@H](C)N1,,MIC,900201,,0.1 µg/mL
FC(F)(F)c1ccc(N2CCN(c3ccc(Nc4ncnc5ccccc45)cc3)CC2)cc1,,MIC50,H37Rv,luminescence,>10 µM
CC(=O)/C(N=Nc1ccc(C(=O)N/N=C/c2ccccc2)cc1)=C(\C)O,12.5 µg/mL,inhibition,H37Rv,,35%
FC(F)(F)c1ccc(CCNc2ncnc3ccsc23)cc1,,MIC50,H37Rv,luminescence,>50 µM
CCOc1ccc(NC(=O)OCC[NH+]2CCCC2)cc1,,MIC,My 331/88,,>1000 µM
CC1(C)C2CC3OB(C[C@@H](Cc4ccccc4)NC(=O)[C@H](Cc4ccccc4)NC(=O)[C@@H](N)Cc4ccccc4)O[C@]3(C)C1C2,,MIC,H37Rv,,≤50 µg/mL
CCCCS(=O)(=O)Nc1ccc(C(=O)NNC(C)=O)cc1,,MIC bound,H37Rv,BACTEC,>12.5 µg/mL
Cc1nc(Nc2ccc(Oc3cccc(C(F)(F)F)c3)cc2)c2ccccc2n1,,MIC50,H37Rv,luminescence,>20 µM
O=[N+]([O-])c1ccc(Sc2ccc3ccccc3c2)c2ncccc12,,MIC,H37Rv,,40 µg/mL
O=S1(=O)CCN(c2ccc(CNc3ncnc4ccsc34)cc2)CC1,,MIC50,H37Rv,luminescence,>40 µM
O=[N+]([O-])c1ccc(Sc2ccc(O)cc2)c2ncccc12,,MIC,H37Rv,,>200 µg/mL
CCCCCOc1ccc(NC(=O)OCC[NH+]2CCCC2)cc1,,MIC,My 331/88,,62.5 µM
FC(F)(F)Oc1ccc(Oc2ccc(Nc3ncnc4cc(Cl)ccc34)cc2)cc1,,MIC50,H37Rv,luminescence,>20 µM
C[C@@H](NC(=O)[C@@H](N)CCCCN)[C@@H](Cc1ccccc1)B1OC2CC3CC(C3(C)C)[C@@]2(C)O1,,MIC,H37Rv,,≤5 µg/mL
O=C(Nc1nc(-c2ccccc2)cs1)c1cc(-c2ccc([N+](=O)[O-])s2)nc2ccccc12,,MIC,H37Rv,fluorescence,6.25 µg/mL
NNC(=O)c1ccncc1,,MIC,Isolate UT3194 (katG S315T mutation),,19 µg/mL
COC1=C(Br)[C@@H](O)[C@]2(C=C1Br)CC(C(=O)NCCCCNC(=O)C1=NO[C@]3(C=C(Br)C(OC)=C(Br)[C@@H]3O)C1)=NO2,,MIC,H37Rv (isoniazid-resistant),,12.5 µg/mL
Nc1ccc2cc(S(=O)(=O)O)cc(O)c2c1N=Nc1ccc(NC(=O)c2ccc(C(=O)Nc3ccc(N=Nc4c(N)ccc5cc(S(=O)(=O)O)cc(O)c45)c(S(=O)(=O)O)c3)cc2)cc1S(=O)(=O)O,,MIC bound,H37Rv,BACTEC,>12.5 µg/mL
FC(F)(F)Oc1cccc(CCNc2ncnc3ccccc23)c1,,MIC50,H37Rv,luminescence,>20 µM
CN(C)c1ccc2c(c1)Sc1cc(N(C)C)ccc1N2C(=O)c1ccccc1,12.5 µg/mL,inhibition,H37Rv,BACTEC,-2%
CN[C@@H]1[C@H](O[C@H]2[C@H](O[C@H]3[C@H](O)[C@@H](O)[C@H](N=C(N)N)[C@@H](O)[C@@H]3N=C(N)N)O[C@@H](C)[C@]2(O)C=O)O[C@@H](CO)[C@H](O)[C@H]1O,,MIC,3897,,≥2 µg/mL
O=C(O)c1cc(-c2cccs2)nc2ccccc12,,MIC,H37Rv,fluorescence,>6.25 µg/mL
COC(=O)[C@@]12OC[C@]34C([C@@H](O)[C@@H]1O)[C@@]1(C)CC(=O)C(O)=C(C)[C@@H]1C[C@H]3OC(=O)[C@H](OC(=O)/C=C(\C)C(C)(C)O)[C@@H]24,,MIC,H37Rv,BACTEC,≥12.5 µg/mL
FC(F)(F)c1ccc(CNc2ncnc3ccccc23)cc1,,MIC50,H37Rv,luminescence,>20 µM
CCCCN(CCCC)CCNc1ccc(C)c2sc3ccc(Cl)cc3c(=O)c12,,MIC bound,H37Rv,BACTEC,>12.5 µg/mL
FC(F)(F)c1ccc(N2CCC(Oc3ccc(Nc4ncnc5ccccc45)cc3)CC2)cc1,,MIC50,H37Rv,luminescence,>10 µM
CCCCCCCCCCCCOC(=O)[C@H](Cc1c[nH]c2ccccc12)NC(=O)N[C@@H](CC1CCCCC1)C(=O)N[C@H](C(=O)NC[C@H]1C[C@@H](O)[C@H](n2ccc(=O)[nH]c2=O)O1)[C@H](C)N(C)C(=O)CN,,MIC99,H37Rv,resazurin / fluorescence,0.625 µM
C[C@]1(COc2ccc(N3CCC(Oc4ccc(OC(F)(F)F)cc4)CC3)cc2)Cn2cc([N+](=O)[O-])nc2O1,,MIC90,11 strains (EMB-resistant),,0.013 µg/mL
Cc1ccc(Oc2ccc([N+](=O)[O-])c3cccnc23)c(C)c1,,MIC,H37Rv,,100 µg/mL

The first 5 rows once more:

SMILES,tested at,endpoint,strain,read by,value
NC[C@H]1O[C@H](O[C@H]2[C@H](O)[C@@H](O[C@H]3O[C@H](CO)[C@@H](O)[C@H](N)[C@H]3O)[C@H](N)C[C@@H]2N)[C@H](O)[C@@H](O)[C@@H]1O,,MIC,,,6 µg/mL
O=[N+]([O-])c1ccc(S(=O)(=O)c2ccc(Cl)cc2Cl)c2ncccc12,,MIC,H37Rv,,10 µg/mL
C[C@@H]([C@H](NC(=O)[C@H](CC1CCCCC1)NC(=O)N[C@@H](Cc1c[nH]c2ccccc12)C(=O)OCc1ccccc1)C(=O)NC[C@H]1C[C@@H](O)[C@H](n2ccc(=O)[nH]c2=O)O1)N(C)C(=O)CN,,MIC99,H37Rv,resazurin / fluorescence,0.166 µM
CC1(C)C2CC3OB([C@H](Cc4ccccc4)[C@@H](Cc4ccccc4)NC(=O)[C@@H](N)CCCCN)O[C@]3(C)C1C2,,MIC,H37Rv,,≤50 µg/mL
O=C(c1ccccc1)C(Nc1nc2nc(-c3ccccc3)c(-c3ccccc3)n2[nH]1)c1ccccc1,12.5 µg/mL,inhibition,H37Rv,BACTEC,86%

An empty or dashed field is not shown. Neighbouring rows are from separate reports. MIC bound: limit read from a one-dose screen. A number after MIC or MFC names an inhibition level or a share of isolates.